According to US20150086555A1 (THERACLONE SCIENCES, published 2015):

B1: TCN-523 (5248_A17) (antibody, V domains shown)
VH: QVQLVQSGAEVKKPGSSVKVSCKASGGSFSNYAFSWVRQAPGQGLEWMGGTIPLLGTTNYAQKFQGRVTISADQFTSTAYMELGSLRSEDTAVYYCTRRKMTTAFDSWGQGTLVTVSS
VL: QPVLTQPPSASASLGASVTLTCTLSSAYSNYKVDWYQQRPGKGPRFVMRVGTGGIVGSKGDGIPDRFSVLGSGLNRYLTIKNIQEEDESDYHCGADHGSGSNFVSPYVFGGGTKLTVL
B2: TCN-522 (3212_I12) (antibody, V domains shown)
VH: QVQLQQWGAGLLKPSETLSLTCTVSGGSLTDYSWNWIRQPPGKGLEWIGDTLHNGYTNYNPSLRGRVSISIDTSKNQVSLRLTSVTAADTALYYCARGSGGYGGFDYFGKLRTWDFWGQGTLVTVSS
VL: DIQLTQSPSSLSASVGDRVTITCRASQGIRNDLGWYQQKPGNAPKRLIFGASSLQSGVPSRFSGSGSGTEFTLTISSLQPEDFATYYCLQHNSYPYTFGQGTKLEIK
B3: TCN-526 (5084_C17) (antibody, V domains shown)
VH: EVLMVESGGGLVQPGGSVRLSCVASGFSFSSHWMTWVRQAPGKGLEWVANIEDDGGDKYYVDSVKGRFIISRDNAKNSVYLQMNSLRAEDTAVYFCARGSGSSDRSDYDPHYYYYLDVWGKGATVTVSS
VL: DIQLTQSPSSLSASVGDRVTITCRASQSISRYLNWYQQKPGKAPKLLLFAASTLLDGVPSRFSGSGSGTDFTLTISSLQPEDFATYYCQRNHSPSWTFGQGTRVEIK
B4: TCN-527 (5086_C06) (antibody, V domains shown)
VH: QVQLQESGPGLVKPSETLSLNCAVSGGSISNYYWSWIRQPPGKGLEWIGYISYNGRPKYNPSLTSRVTISVDTSKDQFSLELRSVTAADTALYYCARETRFGELLSPYDAFEIWGQGTMVTVSS
VL: DIQMTQSPSSLSASVGDRVTMTCRASQNIRSYLNWYQQRPGTAPKLLIYAASTLHSGVPSRFSGGGSGTDFTLTINNLQPEDFASYYCQQSYDNPQTFGQGTKVEIK
B5: TCN-528 (5087_P17) (antibody, V domains shown)
VH: QVQLVQSGSEVKKPGASVKVSCKASGYTFTNYDINWIRQAPGQGLEWMGWINPNSGTTGSAQRFQGRVTITVDTSITTVYMELSSLRSDDTAIYYCARGRELLRLQHFLTDSQSERRDCFDPWGQGTLVTVSS
VL: DIQMTQSPSSLSASVGDRVTITCRANQDIGIYLNWYQQNPGKVPKLLLHGASSLQGGVPSRFSASGSGTDFTLTIHSLQPEDLATYYCQQSRRLPYTFGQGTRVELK
B6: TCN-563 (5237_B21) (antibody, V domains shown)
VH: QVQLAQSGAEVKRPGSSVKVSCTASGGIFRKNAISWVRQAPGQGLEWMGGIIAVFNTANYAQKFQGRVKITADESGNTAYMELSSLRSDDTAVYYCASHPKYFYGSGSYPDFWGQGTLVTVSS
VL: QSALTQPRSVSGSPGQSVTISCTGSSSDVGASNSVSWYQQHPGKAPKLVIYDVTERPSGVPHRFSGSKSGNTASLTVSGLQPEDEADYFCCAYGGKYLVVFGGGTKVTVL
B7: TCN-504 (3251_K17) (antibody, V domains shown)
VH: QVQLQESGPGLVKPSETLSLTCAVSGVSISNIDFYWGWIRQPPGKGLEWIGNIYYTGITFYNPSLSSRVAISIDTSKNQFSLTLTSVTAADTAMYYCARHYGDSEAINDAFDIWGQGTMLTVSS
VL: EIVMTQSPATLSVSPGERATLSCRASQSVGNSLAWYQQRPGQAPRLLIYGASTRATGIPPRFSGSGSGTEFTLTISSLQTEDFAVYYCQQYINWRPLSFGGGTKVEIK
B8: TCN-531 (5091_H13) (antibody, V domains shown)
VH: EVQLVESGGDLVQPGRSLKLSCTGSGFTFGDYGVTWVRQAPGKGLEWVGFIRTRPWGGTADTAASVKGRFTISRDDSKSLAYLQMNSLKTEDTAVYYCCRDAPPNVEVASMTNWYFDLWGRGTLVTVSS
VL: DIQLTQSPSSLSASVGDRVTITCRASQGILNCLAWYQQKPGKVPNLLMYAASTLQSGVPSRFSGSGFGTDFTLTISSLQPEDVATYYCQTYGGVSTFGGGTKVEIR
B9: TCN-530 (5248_H10a) (antibody, V domains shown)
VH: QVQLVQSGAEVRKPGSSVKVSCKASGGPFMSYAIGWVRQAPGQGLEWMGGINPVFGRPHYAQKFQGRVTIATDDSTKTSYMELSSLTSEDTGMYYCASRYSRSSPGTFESWGQGTLVTVSS
VL: EIVMTQFPATLSVSPGERVTLSCRASQSVSNNLAWYQQKPGQPPRLLIYDASTRATGVPAKFSGTGSGTEFTLSISSLQSEDFAVYYCQQYHNWPPSYSFGLGTKLEIK
B10: TCN-529 (5297_H01) (antibody, V domains shown)
VH: QITLRESGPTLVKPTQTLTLTCTFSGFSLSTNGVNVGWIRQPPGKALEWLALIYWDDDKRYSPSLKRRLTITKDTSKNQVVLTLTNMDPVDTATYYCAHRPDFYGDFEYWGPGTLVTVSS
VL: QSALTQPASVSGSPGQSITISCTGSSSDIGGYNYVSWYQQHPGKAPKLMIYDVNNRPSGVSNRFSGSKSGNTASLTISGLQTDDEADYYCGSYTGSPHYVFGTGTKVTVL
B11: TCN-533 (5256_A17a) (antibody, V domains shown)
VH: QVQLVQSGADVKKPGSSVTVSCKASGGSFSNYGINWVRQAPGQGLEWMGGIIPLINAPNYAPKFQGRVTITADMFSNIVSLQLTSLRTDDTAVYYCARRKMTTAIDYWGQGTLVTVSS
VL: B1 VL
B12: TCN-532 (5262_H18) (antibody, V domains shown)
VH: QVQLQESGPGLVKPSETLSLTCTVSGGSVSSETYYWSWIRQPPGKGLEWIGYIYYIGNTDYRPSLKSRVTISLDTSKNQFSLKLSSVTAADTAVYYCARGAYYDSSGYPAFYIWGQGTMVTVSS
VL: QSVLTQPPSVSGAPGQRVTISCTGSSSNIGSDYDVHWYKQLPGTAPKLLIFGNSNRPSGVPDRFSGSKSGTSASLAITGLQAEDEADYYCQSYDSSLSGFHVFGSGTKVTVL
B13: TCN-535 (5246_P19) (antibody, V domains shown)
VH: QVQLVQSGSEVKKPGTSVKVSCTASGSVFTNYGISWVRQAPGQGLEWMGGIIPLFGAAKYAQKFQGRVTITADESTKTVYMELSRLTSKDTAIYFCAKAPRVYEYYFDQWGQGTPVTVSS
VL: EIVLTQSPGTLSLSPGERATLSCRASQSVSSSQLAWYQQKPGQAPRLIIYGASTRATGIPDRFSGSGSGTDFTLTIGRLEPEDFAVFFCQQYSTSPPTFGQGTKVDFK
B14: TCN-534 (5249_B02) (antibody, V domains shown)
VH: QVQLVQSGAEVKKPGSSVKVSCRESGGTFNGYTITWVRQAPGQGLEWMGGIIPMMGTVNYAQKLQGRVTITTDYFTKTAYMDLNNLRSEDTAMYYCVKIRYTGQQLLWGQGTLVTVSS
VL: DIQMTQSPSTLSASIGDRVTITCRASQSIASWLAWYQQKPGKAPKLLIYEAVNLESGVPSRFSGSGSGTDFTLTISSLQPDDFATYFCQHYGTISQTFGGGTKVEIK
B15: TCN-536 (5095_N01) (antibody, V domains shown)
VH: QVQLQQWGAGLLKPSETLSLTCAVYGGSFSVSGYYWSWIRQPPGRGLEWIGEISHGGSTNYNPSLKSRVTISVDTTKNQFSLRLSSVTAADTAVYYCARGTDPDTEVYCRVGNCAAFDYWGQGSLVTVSS
VL: EIILAQSPGTLSLSPGERATLSCRASQFVSTRSLAWYQQRPGQAPRLLIYGASSRATGIPDRFSGSGSGTDFTLTISRLEPEDFAVYYCQHYGYSPRYAFGQGSKVEIK
B16: TCN-554 (5277_M05) (antibody, V domains shown)
VH: QVQLVQSGADLKKPGASVKVSCKASGYTFTDYYIHWVRQAPGQGLEWMGWINPESGDTKYAQKFQGRVTMTRDTSITTAYMELGRLRSDDTAVYYCARDVSTTWSWFAPWGQGTLVTVSS
VL: DIVMTQSPDSLAVSLGERATINCRSSQSIFHNSNNENYLAWYQQKPGQPPKLLIYWASTRESGVPDRFSGSGSGTDFTLTISSLQAEDVAVYFCQQYYNAPLTFGGGTKVEIK
B17: Fab fragment of TCN-536 (5095_N01) (Fab, V domains shown)
VH: B15 VH
VL: B15 VL

Experiments:
[1] = target: T1, Hemagglutinin (HA) of influenza A virus A/Wisconsin/67/05 H3N2, on whole virions (Influenza A virus A/Wisconsin/67/2005 …); test: ELISA on coated inactivated whole virions; transfection supernatant, set 2
T1 construct: whole, on cells

[2] = target: T1, Hemagglutinin (HA) of influenza A virus …; test: ELISA on coated inactivated whole virions; transfection supernatant, set 3
[3] = target: T1, Hemagglutinin (HA) of influenza A virus …; test: ELISA on coated inactivated whole virions; transfection supernatant, set 4
[4] = target: T1, Hemagglutinin (HA) of influenza A virus …; test: ELISA on coated inactivated whole virions; transfection supernatant, set 1
[5] = target: T1, Hemagglutinin (HA) of influenza A virus …; test: ELISA on coated inactivated whole virions; transfection supernatant, set 5
[6] = target: Hemagglutinin (HA) of influenza A virus A/Japan/305/57 H2N2, on whole virions (Influenza A virus A/Japan/305/1957 …)
[7] = target: Hemagglutinin (HA) of influenza A virus A/Solomon Islands/3/06 H1N1, on whole virions (Influenza A virus A/Solomon …)
[8] = target: recombinant trimeric HA of H1N1 A/California/04/09 (Influenza A virus A/California/04/2009 …); test: SPR (ProteOn, GLM chip), HA-CA captured on anti-V5 surface, Fab in solution

Binder	ELISA virus binding (OD450) [1] [OD450]	ELISA virus binding (OD450) [2] [OD450]	ELISA virus binding (OD450) [6]	ELISA virus binding (OD450) [7] [OD450]	other results
B1	0.09	0.15	1.69 OD450 and 1.39 OD450 and 3.47 OD450 and 1.73 OD450 and 2.56 OD450	–	ELISA virus binding (OD450) [3]: 0.09 OD450; ELISA virus binding (OD450) [4]: 0.09 OD450; ELISA virus binding (OD450) [5]: 0.14 OD450
B2	0.07	–	0.61 OD450	–	–
B3	0.31	–	0.07 OD450	0.08	–
B4	0.14	–	3.63 OD450	–	–
B5	0.23	–	3.64 OD450	–	–
B6	0.09	–	0.84 OD450	–	–
B7	–	–	3.62 OD450 and 3.64 OD450 and 3.51 OD450 and 3.59 OD450	3.6	ELISA virus binding (OD450) [3]: 3.59 OD450; ELISA virus binding (OD450) [5]: 3.6 OD450
B8	–	3.59	0.09 OD450	0.1	–
B9	–	0.21	3.43 OD450	–	–
B10	–	3.65	0.1 OD450	0.16	–
B11	–	0.22	3.65 OD450	–	–
B12	–	3.43	0.08 OD450	0.13	–
B13	–	–	2.45 OD450	–	ELISA virus binding (OD450) [3]: 0.1 OD450
B14	–	–	2.45 OD450	3.5	ELISA virus binding (OD450) [3]: 0.08 OD450
B15	–	–	0.06 OD450	–	ELISA virus binding (OD450) [3]: 3.61 OD450
B16	–	–	0.11 OD450	0.18	ELISA virus binding (OD450) [5]: 3.4 OD450
B17	–	–	–	–	binding result [8]: no binding (tested: 50 nM as the highest Fab concentration)

Several values for one entry are separate records, joined by “and”; a condition that tells them apart may be missing. Equal values may be shown once.
